Experimental data: PMC3618430 (PLoS ONE, 2013)

T1: bioHA331, N-terminal biotinylated derivative of HA331 (Influenza A virus H5N1, strain not …, biotin on the N-terminus)
T1 chain: TGLRNSPQRERRRRKKR

T2: HA331, peptide for the H5N1 hemagglutinin cleavage site (Influenza A virus H5N1, strain not …)
T2 chain: CTGLRNSPQRERRRRKKR

T3: Pep11-2 (Influenza A virus H5N1, strain not …, PEG2 between the N-terminal C and T, as printed C(PEG2)T)
T3 chain: TGLRNSPQRERRRKKR


Key:
[1] = target: T1, bioHA331, N-terminal biotinylated …; experiment: SPR
[2] = target: T4, recombinant A/Vietnam/1194/2004 H5N1 HA (Influenza A virus A/Vietnam/1194/2004 …, UniProt A5A5M5, strain); experiment: SPR
[3] = target: T2, HA331, peptide for the H5N1 …; experiment: SPR; XPR36 (Bio-Rad), 25°C; peptide immobilised, purified Fab as analyte
Pep11-2 = target: T3, Pep11-2; experiment: as above
[4] = target: T4, recombinant A/Vietnam/1194/2004 H5N1 HA; experiment: ELISA

Row | Binder | Kd [1] | Kd [2] | Kd [3] | Kd (Pep11-2) | binding result [4]
1 | A3 soluble Fab fragment (Fab, V domains shown) VH: QVTLKESGPGILKPSQTLSLTCSFSGFSLSTSGMGVGWIRQSSGKGLEWLANIWWDDDKYYNPSLKSQLTISKDTSRNQVFLKITSVDTADTATYYCARRGEYDAMDYWGQGTSVTVSS VL: DIVLTQSPASLAVSPGQRATIFCKASQSVVYDGDSYMNWYQQKPGQPPKLLIYAASNLESGIPARFSGSGSGTDFTLNIHPVEEEDAATYYCQQSSEDPWTFGGGTKLEIK | 7.39 nM | 76.1 nM | 0.8 nM | 2.31 nM | –
2 | D8 Fab displayed on phage (Fab, V domains shown, also called clone D8; Fab-phage D8; source: E. coli TG-1 with helper phage KM13, phage PEG-precipitated) VH: QVTLKESGPGILKPSQTLSLTCSFSGFSLSTPGMGVGWIRQPSGKGLEWLANIWWDDDKYYNPSLKSQLTISKDTSRNQVFLKITSVDTTDTATYYCARRGNYDAMDYWGQGTSVTVSS VL: DIVLTQSPASLAMSLGQRATISCKASQSVVYDGDSYMNWYQQKPGQPPKLLIYAASNLESGIPARFSGSGSGTDFTLNIHPVEEEDAATYYCQQSSEDPWTFGGGTKLEIK | – | – | – | – | binds
3 | A4 Fab displayed on phage (Fab, V domains shown, also called clone A4; Fab-phage A4; source: E. coli TG-1 with helper phage KM13, phage PEG-precipitated) VH: QVTLKESGPGILKPSQTLSLTCSFSGFSLSTSGMGVGWIRQPSGKGLEWLANIWWDDDKYYNPSLKSQLTISKDTSRNQVFLKITSVDTADTATYYCARRGKYDSMDYWGQGTSVTVSS VL: DIVLTQSPASLAMSLGQRATISCKASQSVVYDGDSYMNWYQQKPGQPPKLLIYAASNLESGIPARFSGSGSGTDFTLNIHPVEEEDAATYYCQQSSEDPWTFGGGTKLEIK | – | – | – | – | binds
4 | A3 Fab displayed on phage (Fab, V domains shown, also called clone A3; Fab-phage A3; source: E. coli TG-1 with helper phage KM13, phage PEG-precipitated) VH: QVTLKESGPGILKPSQTLSLTCSFSGFSLSTSGMGVGWIRQSSGKGLEWLANIWWDDDKYYNPSLKSQLTISKDTSRNQVFLKITSVDTADTATYYCARRGEYDAMDYWGQGTSVTVSS VL: DIVLTQSPASLAVSPGQRATIFCKASQSVVYDGDSYMNWYQQKPGQPPKLLIYAASNLESGIPARFSGSGSGTDFTLNIHPVEEEDAATYYCQQSSEDPWTFGGGTKLEIK | – | – | – | – | binds
5 | D8 soluble Fab fragment (Fab, V domains shown) VH: QVTLKESGPGILKPSQTLSLTCSFSGFSLSTPGMGVGWIRQPSGKGLEWLANIWWDDDKYYNPSLKSQLTISKDTSRNQVFLKITSVDTTDTATYYCARRGNYDAMDYWGQGTSVTVSS VL: DIVLTQSPASLAMSLGQRATISCKASQSVVYDGDSYMNWYQQKPGQPPKLLIYAASNLESGIPARFSGSGSGTDFTLNIHPVEEEDAATYYCQQSSEDPWTFGGGTKLEIK | 35 nM | 49.3 nM | 2.54 nM | 5.74 nM | –
6 | D4 soluble Fab fragment (Fab, V domains shown) VH: QVTLKESGPGILKPSQTLSLTCSFSGFSLNTSGMGVGWIRQPSGKGLEWLANIWWDDDKYYNPSLKSHLTISKDTSGNQVFLKITSVDTADSATYYCARRGDYDSLDYWGQGTSVTVSS VL: DIVLTQSPGSLSVSLGQRATISCKASQSVDYDGDSYMNWYQQKPGQPPKLLIYAASNLESGIPARFSGSGSGTDFTLNIHPVEEEDAATYYCQQSSEDPWTFGGGTKLEIK | 7.54 nM | 35.9 nM | 0.47 nM | 1.62 nM | –
7 | D4 Fab displayed on phage (Fab, V domains shown, also called clone D4; Fab-phage D4; source: E. coli TG-1 with helper phage KM13, phage PEG-precipitated) VH: QVTLKESGPGILKPSQTLSLTCSFSGFSLNTSGMGVGWIRQPSGKGLEWLANIWWDDDKYYNPSLKSHLTISKDTSGNQVFLKITSVDTADSATYYCARRGDYDSLDYWGQGTSVTVSS VL: DIVLTQSPGSLSVSLGQRATISCKASQSVDYDGDSYMNWYQQKPGQPPKLLIYAASNLESGIPARFSGSGSGTDFTLNIHPVEEEDAATYYCQQSSEDPWTFGGGTKLEIK | – | – | – | – | binds
8 | A4 soluble Fab fragment (Fab, V domains shown) VH: QVTLKESGPGILKPSQTLSLTCSFSGFSLSTSGMGVGWIRQPSGKGLEWLANIWWDDDKYYNPSLKSQLTISKDTSRNQVFLKITSVDTADTATYYCARRGKYDSMDYWGQGTSVTVSS VL: DIVLTQSPASLAMSLGQRATISCKASQSVVYDGDSYMNWYQQKPGQPPKLLIYAASNLESGIPARFSGSGSGTDFTLNIHPVEEEDAATYYCQQSSEDPWTFGGGTKLEIK | 24.3 nM | 68.9 nM | 2.59 nM | 5.03 nM | –
